Data taken from ChEMBL document CHEMBL3988442, “University of Dundee, Small-Polar-MMV Screening Library” (2021).

A: 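Phenotypic screen: M. tuberculosis growth, glucose 7H9 medium, 3 days; the read-out is not stated. Tested at 500 µM. The record gives no direction; compounds that gave an IC50 in retests scored well above the rest, so higher reads as more growth inhibition. Of about 18,000 compounds tested this way, about 1,400 (7.9%) reached 50% or more in at least one test.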
B: 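Whole-cell growth test on Mycobacterium tuberculosis, read after 4 days in a medium based on cholesterol and the lipid DPPC; the read-out is not stated. Compounds at 500 µM. The record gives no direction; compounds that gave an IC50 in retests scored well above the rest, so higher reads as more growth inhibition. About 18,000 compounds were tested under these conditions; 5% (about 900) showed 50% or more at least once.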

The filed quantity is “Percent Effect” (%).
How 0% and 100% were set is not recorded. Most values in the screen are low, and negative values occur.
The entries come from a sample that favours strong results.
A dash means the value is not listed here; it may have been measured.

compound	A	B
COCC(C)NC(=O)CSc1nc(N)c2ccsc2n1 (stereo not given)	20.2%	6.297%
CCn1ccnc1CNCC1CCN(CC(C)O)CC1 (stereo not given)	14.47%	-
COCCNCCNC(=O)c1cnn(C)c1	-1.094%	-
NC(=O)NC(=O)COC(=O)c1ccccc1Br	9.338%	-
CC(C)[C@]1(O)CN(Cc2c[nH]cn2)C[C@H]1C	18.59%	-
COCCNC(=O)Nc1ccc(OC(F)F)c(F)c1	66.66%	69.12%
Cc1cc(S(=O)(=O)Nc2cccnc2N(C)C)c(C)o1	46.69%	-
COc1ccc(CN2CCCNCC2)cc1	63.18%	51.41%
O=C1CSc2ccc(C(=O)Nc3nccs3)cc2N1	6.983%	-
NC(CCO)c1ccccc1Br (stereo not given)	6.628%	-
Cc1cc(=O)[nH]c(C2(N)CCCCC2)n1	-6.904%	-
CC(C)CC(C)(N)CN (stereo not given)	-	13.81%
Cc1nn(CCO)c(NCc2cccc(F)c2)c1C	50.58%	-
CC(C)COCC(C)NC(=O)c1ccc2nncn2c1 (stereo not given)	-	4.825%
Cc1cnc(C#N)cc1Cl	1.723%	-
CC(NC(=O)C(C)(C)C)c1ccc(S(C)(=O)=O)cc1 (stereo not given)	8.154%	-
COc1ccc(S(=O)(=O)N(C)C)cc1NCC1CC1	56.66%	-
O=C(c1cc(C2CC2)on1)N1CC(O)(C2CC2)C1	69.13%	64.43%
CNC(=O)c1cccnc1NCC1CC1	-	12.13%
O=C(c1cn(C2CNC2)nn1)N1CCCC1	-	-11.24%
CSc1ccc(NC(=O)C(C)N2CCN(C)CC2)cn1 (stereo not given)	-	-3.441%
NCC(=O)N1CCCC(COc2ccc(F)cc2)C1 (stereo not given)	53.57%	21.21%
OC1(c2nc(-c3cnccn3)no2)CCCCC1	0.5168%	-9.104%
CCOC(=O)Cc1nc2nc(C)cc(C)n2n1	7.134%	-
CCSc1cc(Cl)ccc1C(=O)N[C@H](C)C(=O)NC	11.97%	-
CCCc1cc(CN(C)C(=O)c2cccs2)n[nH]1	69.52%	66.92%
O=S1(=O)CCC(Nc2cc([C@H]3C[C@@H](O)C3)ncn2)CC1	7.742%	-
CS(=O)(=O)NCCC(=O)N1CCc2ccccc2C1	17.1%	-7.526%
C=C(C)CCOC(=O)c1ccc(CS(C)(=O)=O)cc1	62.68%	79.17%
CCC(C)(CC)NC(=O)NC(C)CS(=O)(=O)CC (stereo not given)	1.819%	-
CNC1CC(=O)N(Cc2ccccc2)C1=O (stereo not given)	3.068%	1.407%
O=C(N[C@H](CO)c1ccccc1)c1cccnc1	-	-7.246%
Cc1cnc(C(=O)NCCSCc2ccco2)cn1	55.05%	-
COCC(C)(O)CCN (stereo not given)	4.407%	-
CCC1Oc2c(Cl)cccc2NC1=O (stereo not given)	-	54.82%
Cc1ccc(C(=O)N2CCC(NC(N)=O)CC2)cc1Cl	-10.77%	-
Cc1ccc(C(=O)N2CCOCC2)cc1-n1cccc1	19.31%	-
NS(=O)(=O)c1cccc(S(=O)(=O)c2ccc(Cl)cc2)c1	73.05%	71.81%
NC(CN1CCOCC1)c1ccccc1 (stereo not given)	56.09%	31.44%
COC(=O)CCCC(=O)N(C)c1ccccc1F	38.02%	-
Cc1ccc(S(=O)(=O)NCC(C)(C)N)c2cccnc12	21.4%	-
COC(=O)c1coc(CN2CCC(O)(CO)CC2)n1	-0.1448%	-
O=C(Cc1cccs1)N1CCC(Nc2cccnc2)C1 (stereo not given)	-	17.18%
CCS(=O)(=O)CC1(O)CCCCC1	-	-10.81%
Cc1[nH]ncc1CCCNC(=O)N1CCSCC1	12.55%	-
COCC(N)Cc1ccccc1 (stereo not given)	3.795%	-
CS(=O)(=O)NCCNS(=O)(=O)c1ccc2c(c1)CCC2	-	10.18%
OCCCNC(c1ccccc1)c1ccccn1 (stereo not given)	51.75%	53.99%

For reference, 4 entries once more:

compound,A,B
OC1(c2nc(-c3cnccn3)no2)CCCCC1,0.5168%,-9.104%
O=C(Cc1cccs1)N1CCC(Nc2cccnc2)C1 (stereo not given),-,17.18%
CS(=O)(=O)NCCNS(=O)(=O)c1ccc2c(c1)CCC2,-,10.18%
CC(C)CC(C)(N)CN (stereo not given),-,13.81%